# Assay results: patent publication US6664231B1, “Anti-fungal peptides” (priority 1993, dated 2003)
# Key:
# [1] = tested on: C. albicans (SLU-1 strain); assay: Survival of mice systemically infected with Candida albicans; type: in vivo, mouse
# Procedure: Groups of 15 male DBA/2J mice at age 6-8 weeks (Jackson Laboratory, Bar Harbor, Me.) were inoculated with 1.24×10^5 C. albicans (SLU-1 strain as described in Example 2) by intravenous injection into the tail vein. Cells were prepared for animal injection as follows. A single colony was selected and used to inoculate a 5 mL tube of Sabouraud dextrose broth. Incubation was at 30° C. with shaking to allow aeration for a period of 15-18 hours. Four mL of the overnight culture were added to 100 mL of fresh Sabouraud dextrose broth (1:25 dilution) and incubated for 4 hours. The 100 mL culture was pelleted at 1,500×g for 5 minutes. Cells were washed twice by adding 20 mL D-PBS, vortexing and re-centrifuging. Cells were collected in one tube and a sample is diluted 1:10 to be measured by OD570 (1 OD unit=3×10^7 CFU/mL). […] Colonies were counted the following day after overnight incubation at 37° C. […]
# Immediately after fungal challenge, the mice were intravenously injected via the tail vein with a 0.1 mL volume of 10 mg/kg XMP.36, 5 mg/kg XMP.97, 10 mg/kg XMP.102, 1 mg/kg amphotericin B (Sigma, St. Louis, Mo.), or phosphate buffered saline (PBS) as a control. […] Mice were monitored twice daily for mortality until termination of the study at Day 28. […] Statistical significance was evaluated using the Lifetest Survival Curve analysis. […]
# Candida albicans SLU-1 = assay: Broth dilution assay, combinations of peptide and amphotericin B; type: cell-based; conditions: amphotericin B 0.047-0.750 μg/ml; FIG. 3
compound,measurement,setting,value
CC[C@H](C)[C@H](NC(=O)[C@H](CC(C)C)NC(=O)[C@H](Cc1ccccc1)NC(=O)CNC(=O)[C@@H](NC(=O)[C@H](CCCCN)NC(=O)[C@H](CO)NC(=O)[C@@H](N)CCCCN)C(C)C)C(=O)N[C@@H](CCC(N)=O)C(=O)N[C@@H](CC(C)C)C(=O)N[C@@H](Cc1ccccc1)C(=O)N[C@@H](Cc1c[nH]cn1)C(=O)N[C@@H](CCCCN)C(=O)N[C@@H](CCCCN)C(N)=O [XMP.127],mice survived until Day 28,"[1]; 0.5×10^5 Candida cells, doses Day 0, 2, 5, 10 mg/kg XMP.127, 5 mg/kg XMP.13, 5 mg/kg XMP.37, 1 mg/kg amphotericin B, FIG. 5",67%
CC[C@H](C)[C@H](NC(=O)[C@H](CC(C)C)NC(=O)[C@H](Cc1c[nH]c2ccccc12)NC(=O)[C@H](CCCCN)NC(=O)[C@@H](NC(=O)[C@H](CCCCN)NC(=O)[C@H](CO)NC(=O)[C@@H](N)CCCCN)C(C)C)C(=O)N[C@@H](CCC(N)=O)C(=O)N[C@@H](CC(C)C)C(=O)N[C@@H](Cc1ccccc1)C(=O)N[C@@H](Cc1c[nH]cn1)C(=O)N[C@@H](CCCCN)C(=O)N[C@@H](CCCCN)C(N)=O [XMP.97],mice survived until Day 28,"[1]; 1.24×10^5 C. albicans i.v., 3 doses i.v. (Day 0, 2, 4), 10 mg/kg XMP.36, 5 mg/kg XMP.97, 10 mg/kg XMP.102, 1 mg/kg amphotericin B, FIG. 4",53%
same,effect of combination of peptide and amphotericin B,Candida albicans SLU-1,decreasing the amount of both anti-fungal agents required for maximum killing
